A mixed list of measured activities; the numbers were collected in NIAID ChemDB.

Common to all: whole-cell or culture tests; species: HIV-1

An empty or dashed field is not shown.

| compound | strain or isolate | changes | read by | cell line | endpoint | result |
|---|---|---|---|---|---|---|
| CC(C)=CCN1Cc2cccc3[nH]c(=S)n(c23)[C@@H](C)[C@@H]1C |  |  | cytopathic effect / MTT | MT-4 | EC50 | ≤0.028 µg/mL |
| BrCC[n+]1ccc(-c2cc[n+](CCBr)cc2)cc1 | IIIB |  | MTT | MT-4 | EC50 | >5.88 µM |
| Nc1nc2c(ncn2[C@H]2CO[C@@H](CO)O2)c(=O)[nH]1 | LAI |  |  | PBMC | EC50 | 0.105 µM |
| CCCOCCCCCCCCCC(=O)O |  |  | cytopathic effect / MTT | CEM | EC50 | <40 µM |
| Cc1cn([C@H]2CC[C@@H](CO)O2)c(=O)[nH]c1=O | IIIB |  | RT activity | MT-4 | EC50 | 4.1 µM |
| CC(C)=CCN1Cc2cc(Cl)cc3[nH]c(=S)n(c23)C[C@@H]1C |  |  | cytopathic effect / MTT | MT-4 | EC50 | 0.0066 µg/mL |
| Cc1cn([C@H]2C[C@H](N=[N+]=[N-])[C@@H](COC(=O)CCC(=O)OC[C@H]3O[C@@H]4O[C@H]5[C@H](O)[C@@H](O)[C@@H](O[C@H]6[C@H](O)[C@@H](O)[C@@H](O[C@H]7[C@H](O)[C@@H](O)[C@@H](O[C@H]8[C@H](O)[C@@H](O)[C@@H](O[C@H]9[C@H](O)[C@@H](O)[C@@H](O[C@H]%10[C@H](O)[C@@H](O)[C@@H](O[C@H]3[C@H](O)[C@H]4O)O[C@@H]%10CO)O[C@@H]9CO)O[C@@H]8CO)O[C@@H]7CO)O[C@@H]6CO)O[C@@H]5CO)O2)c(=O)[nH]c1=O | IIIB |  | cytopathic effect / MTT | MT-4 | EC50 | 0.0186 µg/mL |
| CC(C)=CCN1[C@@H](C)Cn2c(=S)[nH]c3cccc(c32)[C@@H]1C |  |  | cytopathic effect / MTT | MT-4 | EC50 | 0.0048 µg/mL |
| COCCCCCCCCCCCC(=O)O |  |  | cytopathic effect / MTT | CEM | EC50 | 4 µM |
| Cc1cn([C@H]2C[C@H](N=[N+]=[N-])[C@@H](CO)O2)c(=O)[nH]c1=O | LAV |  | RT activity | PBMC | EC50 | 0.002 µM |
| CC(C)=CCN1Cc2cc(Cl)cc3[nH]c(=S)n(c23)C[C@H]1C |  |  | cytopathic effect / MTT | MT-4 | EC50 | 0.094 µg/mL |
| Cc1cn([C@H]2C[C@H](N=[N+]=[N-])[C@@H](COC(=O)CCC(=O)OC[C@H]3O[C@@H]4O[C@H]5[C@H](O)[C@@H](O)[C@@H](O[C@H]6[C@H](O)[C@@H](O)[C@@H](O[C@H]7[C@H](O)[C@@H](O)[C@@H](O[C@H]8[C@H](O)[C@@H](O)[C@@H](O[C@H]9[C@H](O)[C@@H](O)[C@@H](O[C@H]3[C@H](O)[C@H]4O)O[C@@H]9CO)O[C@@H]8CO)O[C@@H]7CO)O[C@@H]6CO)O[C@@H]5CO)O2)c(=O)[nH]c1=O | IIIB |  | cytopathic effect / MTT | MT-4 | EC50 | 0.004 µg/mL |
| CCCCOCc1cn([C@@H]2C[C@H](N=[N+]=[N-])[C@@H](CO)O2)c(=O)[nH]c1=O | IIIB |  | ELISA / antigen | MT-4 | EC50 | >100 µM |
| Cc1cn([C@H]2C[C@H](N=[N+]=[N-])[C@@H](CO)O2)c(=O)[nH]c1=O | IIIB |  | cytopathic effect / MTT | MT-4 | EC50 | <0.001 µg/mL |
| Cc1cn([C@H]2C[C@H](N=[N+]=[N-])[C@@H](CO)O2)c(=O)[nH]c1=O |  |  | cytopathic effect / MTT | CEM | EC50 | 0.02 µM |
| Nc1ncnc2c1ncn2[C@@H]1OC[C@H](CCP(=O)(O)O)[C@H]1F | IIIB |  | MTT | MT-4 | EC50 | 8.8 µM |
| CCOP(=O)(O)COCCn1nnc2c(=O)[nH]c(N)nc21 |  |  | cytopathic effect / MTT | MT-4 | EC50 | >315 µM |
| CC(C)=CCN1Cc2cc(Cl)cc3[nH]c(=S)n(c23)C[C@@H]1C |  | RT-K70R K103N |  | MT-4 | EC50 | <3 µM |
| CCOCc1cn([C@H]2C[C@H](N=[N+]=[N-])[C@@H](CO)O2)c(=O)[nH]c1=O | IIIB |  | ELISA / antigen | MT-4 | EC50 | >100 µM |
| Cc1c(O)cccc1C(=O)N[C@@H](CSc1ccccc1)[C@H](O)CN1C[C@H]2CCCC[C@H]2C[C@H]1C(=O)NC(C)(C)CO | RF |  | cytopathic effect / MTT | CEM + CEM-SS | EC95 | 0.1541 µM |
| Nc1ncnc2c1ncn2CCOCP(=O)(O)O |  |  | cytopathic effect / MTT | MT-4 | EC50 | 5.3 µM |
| CC(C)=CCN1Cc2cccc3[nH]c(=S)n(c23)C[C@@H]1C |  |  | cytopathic effect / MTT | MT-4 | EC50 | 0.008 µg/mL |
| Cc1cn([C@H]2C[C@H](N=[N+]=[N-])[C@@H](CO)O2)c(=O)nc1N | DV |  | RT activity | Macrophage | EC50 | 0.006 µM |
| Cc1cc(SC2=C(O)CC(CCc3ccc(O)cc3)(c3ccccc3)OC2=O)c(C(C)(C)C)cc1CO |  |  | cytopathic effect / XTT | CEM | EC95 | 20 µM |
| CCCCOCCCCCCCCC(=O)O |  |  | cytopathic effect / MTT | CEM | EC50 | <40 µM |
| CC(C)=CCC/C(C)=C/CC[C@@]1(C)C=Cc2c(cc(C)c(C(=O)O)c2O)O1 | IIIB |  | p24 / ELISA | H9 | EC50 | 0.00567 µg/mL |
| O=c1[nH]cnc2c1ncn2[C@H]1CC[C@@H](CO)O1 | IIIB |  | p24 | PBL | EC50 | 0.58 µM |
| CC(C)(C)C(=O)SCCOP(=O)(CC[C@H]1CO[C@@H](n2cnc3c(N)ncnc32)[C@@H]1F)OCCSC(=O)C(C)(C)C | IIIB |  | MTT | MT-4 | EC50 | 2.2 µM |
| CN=C1N(C)C(=O)OC12[C@@H](CO[Si](C)(C)C(C)(C)C)O[C@@H](n1cc(C)c(=O)n(C)c1=O)[C@@H]2O[Si](C)(C)C(C)(C)C | IIIB |  |  | MT-4 | EC50 | >7 µM |
| Cc1ncc(COP(=O)(O)O)c(C=O)c1O | IIIB |  | p24 | MT-2 | EC50 | >100 µg/mL |
| COc1cc(/C=C/c2ccc3c(C(=O)O)cc(C(=O)O)c(O)c3n2)cc(O)c1O |  |  | β-galactosidase | HeLaP4 | EC50 | 1.6 µM |
| Nc1ncnc2nnn(CCOCP(=O)(O)O)c12 |  |  | cytopathic effect / MTT | MT-4 | EC50 | >365 µM |
| CO[C@H]1O[C@@H](n2ccc(=O)[nH]c2=O)C[C@@H]1N=[N+]=[N-] | IIIB |  | ELISA / antigen | MT-4 | EC50 | 0.36 µM |
| Nc1nc2c(nnn2CCOCP(=O)(O)O)c(=O)[nH]1 |  |  | cytopathic effect / MTT | MT-4 | EC50 | 15 µM |
| CCCCC[C@H](O)/C=C/[C@H]1[C@H](O)CC(=O)[C@@H]1C/C=C\CCCC(=O)O |  |  | syncytia |  | EC50 | >40 µM |
| CCCCCOCc1cn([C@@H]2C[C@H](N=[N+]=[N-])[C@@H](CO)O2)c(=O)[nH]c1=O | IIIB |  | ELISA / antigen | MT-4 | EC50 | 73 µM |

5 of the rows above, restated:

compound	strain or isolate	changes	read by	cell line	endpoint	result
Nc1ncnc2nnn(CCOCP(=O)(O)O)c12			cytopathic effect / MTT	MT-4	EC50	>365 µM
CC(C)(C)C(=O)SCCOP(=O)(CC[C@H]1CO[C@@H](n2cnc3c(N)ncnc32)[C@@H]1F)OCCSC(=O)C(C)(C)C	IIIB		MTT	MT-4	EC50	2.2 µM
Cc1cn([C@H]2C[C@H](N=[N+]=[N-])[C@@H](COC(=O)CCC(=O)OC[C@H]3O[C@@H]4O[C@H]5[C@H](O)[C@@H](O)[C@@H](O[C@H]6[C@H](O)[C@@H](O)[C@@H](O[C@H]7[C@H](O)[C@@H](O)[C@@H](O[C@H]8[C@H](O)[C@@H](O)[C@@H](O[C@H]9[C@H](O)[C@@H](O)[C@@H](O[C@H]%10[C@H](O)[C@@H](O)[C@@H](O[C@H]3[C@H](O)[C@H]4O)O[C@@H]%10CO)O[C@@H]9CO)O[C@@H]8CO)O[C@@H]7CO)O[C@@H]6CO)O[C@@H]5CO)O2)c(=O)[nH]c1=O	IIIB		cytopathic effect / MTT	MT-4	EC50	0.0186 µg/mL
CO[C@H]1O[C@@H](n2ccc(=O)[nH]c2=O)C[C@@H]1N=[N+]=[N-]	IIIB		ELISA / antigen	MT-4	EC50	0.36 µM
CCCCOCCCCCCCCC(=O)O			cytopathic effect / MTT	CEM	EC50	<40 µM

Rows are shuffled and stem from different studies. ECn is the concentration giving n% inhibition of infection, replication or growth.